Publication PMC12356973

Biological target: nsp14 (Fe-S, two [Fe4S4] + one Zn, anoxic purification) (SARS-CoV-2) (UniProt P0DTD1)
Assay: EMSA
Settings: untreated, [Fe4S4]2+ resting state; 5'-triphosphate; recombinant protein; protein details: C-terminal 2xStrep II

Does AUUAAAGGUU [RNA-1 (5'-ppp RNA)] bind?
Result: binds

Construct, isoform or probe ends are uncertain for at least one entry. At least one verdict rests on a figure or table, not on a statement of the authors.
